Assay results: paper PMC9960827, “Cloning and Characterization of Trypanosoma congolense and T. vivax Nucleoside Transporters Reveal the Potential of P1-Type Carriers for the Discovery of Broad-Spectrum Nucleoside-Based Therapeutics against Animal African Trypanosomiasis” (International Journal of Molecular Sciences, 2023)

How the values were obtained:
L. mexicana SUPKO = assay type: cell-based, Leishmania mexicana; details: Resistance Factor = EC50(SUPKO)/EC50(Cas9)
Procedure: EC50 values were determined by plotting to an equation for a sigmoid curve with variable slope (GraphPad Prism 8). All values were the average of at least three independent determinations on different days.

T. brucei TbAT1-KO = details: cited from earlier work

## Nc1ncnc2c1ccn2[C@@H]1O[C@H](CO)[C@@H](O)[C@H]1O [Tubercidin, 7-deazaadenosine]
L. mexicana SUPKO
  SUPKO RF (Cas9): >230
T. brucei TbAT1-KO
  resistance factor in TbAT1-KO compared to the wild type: 28.7
  resistance of the TbAT1-KO strain: 77 fold
